Measured values from several laboratories, pooled; numbers as filed in NIAID ChemDB.

All rows: growth or infection tests; agent: HIV-1; cell line: MT-2; read-out: EC50

ECn is the concentration giving n% inhibition of infection, replication or growth. a–b is a range or a potency band. Conditions beyond the fields shown may differ between rows. Blank or dashed fields: not listed here.

SMILES | strain or isolate | changes | method | conditions | result
CC(=O)c1cccc(CN2C(=O)N(Cc3cccc(C(C)=O)c3)[C@H]3CS[C@@H](CCCCCO)[C@H]32)c1 | RF | - | - | - | <26 µM
C#C[C@@]1(CO)C=C[C@H](n2cc(C)c(=O)[nH]c2=O)O1 | IIIB | - | cytopathic effect / MTT | - | 0.5 µM
O=C(Nc1nc2ccccc2[nH]1)c1cccc(CN2C(=O)N(Cc3cccc(C(=O)Nc4nc5ccccc5[nH]4)c3)[C@H](Cc3ccc(OCc4ccccc4)cc3)[C@H](O)[C@@H](O)[C@H]2Cc2ccc(OCc3ccccc3)cc2)c1 | RF | - | - | 3 d | <0.125 µM
COC(C)(C)CCc1cc(=O)n(-c2ccc(Cl)c3c(NS(C)(=O)=O)nn(C)c23)c([C@H](Cc2cc(F)cc(F)c2)NC(=O)Cn2nc(C(F)F)c3c2C(F)(F)[C@@H]2C[C@H]32)n1 | NL4-3 | - | luciferase | - | 0.00007 µM
Nc1ccn([C@H]2CC[C@@H](CO)O2)c(=O)n1 | NL4-3 | - | - | - | 0.1 µM
Cc1cn([C@H]2C[C@H](N=[N+]=[N-])[C@@H](CO)O2)c(=O)[nH]c1=O | IIIB | I401T R409K D437N | p24 / ELISA | - | 0.153 µM
Nc1nc(=O)n([C@@H]2CS[C@H](CO)O2)cc1F | HXB2-D WT | - | cytopathic effect / XTT | - | 0.77 µM
CC(C)C[C@@H]1[C@H](O)[C@@H](O)[C@@H](CC(C)C)N(Cc2cccc(C(=O)Nc3nc4ccccc4[nH]3)c2)C(=O)N1Cc1cccc(C(=O)Nc2nc3ccccc3[nH]2)c1 | RF | PR-I84V | - | 3 d | <0.02 µM
Nc1nc(=O)n([C@@H]2CO[C@H](CO)S2)cc1F | HXB2D | - | RT activity | - | 6.6 µM
COc1cc(CN2C(=O)N(Cc3cccc(C(=O)Nc4cccc(C)n4)c3)[C@H](Cc3ccccc3)[C@H](O)[C@@H](O)[C@H]2Cc2ccccc2)cc(OC)c1 | RF | - | - | - | <0.2817 µM
C=C(C)[C@@H]1CC[C@]2(C(=O)N3CCCC(C(=O)N(CC)CC)C3)CC[C@]3(C)[C@H](CC[C@@H]4[C@@]5(C)CC=C(c6ccc(C(=O)O)cc6)C(C)(C)[C@@H]5CC[C@]43C)[C@@H]12 | NL4-3 | Gag P373S | luciferase | - | <0.1 µM
O=C1N(Cc2cccc(Br)c2)[C@@H]2[C@H](CCCCCO)SC[C@@H]2N1Cc1cccc(Br)c1 | RF | - | - | - | <7 µM
Cc1cn([C@H]2C=C[C@@H](CO)O2)c(=O)[nH]c1=O | IIIB | - | cytopathic effect / MTT | - | 1.4 µM
CC(C)C1=C2[C@H]3CC[C@@H]4[C@@]5(C)CC[C@H](OC(=O)[C@H]6C[C@@H](C(=O)O)C6(C)C)C(C)(C)[C@@H]5CC[C@@]4(C)[C@]3(C)CC[C@@]2(c2ncc(-c3ccc(Cl)cc3)n2CCN(C)C)CC1=O | 92HT599 | - | p24 / ELISA | - | <0.01 µM
O=C1N(Cc2cccc(-c3cn[nH]c3)c2)[C@H](Cc2ccccc2)[C@H](O)[C@@H](O)[C@@H](Cc2ccccc2)N1Cc1cccc(-c2cn[nH]c2)c1 | RF | - | - | - | <0.032 µM
Cc1cn([C@H]2C[C@H](N=[N+]=[N-])[C@@H](CO)O2)c(=O)[nH]c1=O | NL4-3 | - | cytopathic effect / neutral red | - | 0.031 µM
CC(C)CN(C[C@@H](O)[C@H](Cc1ccccc1)NC(=O)O[C@H]1CCOC1)S(=O)(=O)c1ccc(N)cc1 | LAI | - | MTT | - | 0.037 µM
Cc1c(O)cccc1C(=O)N[C@@H](CSc1ccccc1)[C@H](O)CN1C[C@H]2CCCC[C@H]2C[C@H]1C(=O)NC(C)(C)C | RF | - | - | - | 0.005 µM
CC(C)(C)NC(=O)[C@@H]1C[C@@H]2CCCC[C@@H]2CN1C[C@H](O)[C@H](Cc1ccccc1)NC(=O)[C@H](CC(N)=O)NC(=O)c1ccc2ccccc2n1 | LAI | - | MTT | - | 0.028 µM
Cc1c(O)cccc1C(=O)N[C@@H](CSc1ccccc1)[C@H](O)CN1C[C@H]2CCCC[C@H]2C[C@H]1C(=O)NC(C)(C)CO | IIIB | - | cytopathic effect / MTT | - | 0.0856 µM
CC/C(=N\O)c1cccc(CN2C(=O)N(Cc3cccc(/C(CC)=N/O)c3)[C@H](Cc3ccccc3)[C@H](O)[C@@H](O)[C@H]2Cc2ccccc2)c1 | RF | - | - | - | <0.007 µM
CN(C)c1ccc(C[C@@H]2[C@H](O)[C@@H](O)[C@@H](Cc3ccc(N(C)C)cc3)N(Cc3cccc(C(=O)Nc4nc5ccccc5[nH]4)c3)C(=O)N2Cc2cccc(C(=O)Nc3nc4ccccc4[nH]3)c2)cc1 | RF | - | - | 3 d | <0.008 µM
COc1cccc(CN2C(=O)N(Cc3cccc(C(=O)Nc4cnccn4)c3)[C@H](Cc3ccccc3)[C@H](O)[C@@H](O)[C@H]2Cc2ccccc2)c1 | RF | - | - | - | <0.0912 µM
O=C1N(Cc2ccccc2)[C@@H]2[C@H](CCCCCO)SC[C@@H]2N1Cc1ccccc1 | RF | - | - | - | <46 µM
CC(C)C1=C2[C@H]3CC[C@@H]4[C@@]5(C)CC[C@H](OC(=O)[C@H]6C[C@@H](C(=O)O)C6(C)C)C(C)(C)[C@@H]5CC[C@@]4(C)[C@]3(C)CC[C@@]2(Cc2ncc(-c3ccc(Cl)cc3)n2CCN(C)C)CC1=O | 92HT599 | - | p24 / ELISA | - | 0.01–0.05 µM
O=c1[nH]cnc2c1ncn2[C@H]1CC[C@@H](CO)O1 | K65R(RT-K65R) | RT-K65R | p24 | - | 7.9 µM
Cc1c(O)cccc1C(=O)N[C@@H](CSc1ccccc1)[C@H](O)CN1C[C@H]2CCCC[C@H]2C[C@H]1C(=O)NC(C)(C)C | NL4-3 | - | - | - | 0.015 µM
COC(=O)N[C@H](C(=O)N[C@@H](Cc1ccccc1)[C@@H](O)CN(Cc1ccc(-c2ccccn2)cc1)NC(=O)[C@@H](NC(=O)OC)C(C)(C)C)C(C)(C)C | LAI | - | MTT | - | 0.003 µM
C=C(C)[C@@H]1CC[C@]2(C(=O)N3CCN(C)CC3)CC[C@]3(C)[C@H](CC[C@@H]4[C@@]5(C)CC=C(c6ccc(C(=O)O)cc6)C(C)(C)[C@@H]5CC[C@]43C)[C@@H]12 | NL4-3 | Gag P373S | luciferase | - | 0.061 µM
CC(C)C1=C2[C@H]3CC[C@@H]4[C@@]5(C)CC[C@H](OC(=O)[C@H]6C[C@@H](C(=O)O)C6(C)C)C(C)(C)[C@@H]5CC[C@@]4(C)[C@]3(C)CC[C@@]2(c2ncc(-c3ccc(F)cc3)[nH]2)CC1=O | 92HT599 | - | p24 / ELISA | - | <0.01 µM
C[C@H](Cn1cnc2c(N)nc(N)nc21)OCP(=O)(O)O | IIIB | - | - | - | 2 µM
C=C(COCCc1ccccc1)[C@@H]1CC[C@]2(C(=O)NC(CC(C)C)C(=O)O)CC[C@]3(C)[C@H](CC[C@@H]4[C@@]5(C)CC[C@H](O)C(C)(C)[C@@H]5CC[C@]43C)[C@@H]12.CCl | IIIB | - | p24 / ELISA / antigen | - | 27.8 µM
Nc1ncnc2c1ncn2CCOCP(=O)(O)O | L74V(RT-L74V) | RT-L74V | p24 | - | 1.3 µM
O=C1N(Cc2cccc(/C=N/O)c2)[C@H](Cc2ccccc2)[C@H](O)[C@@H](O)[C@@H](Cc2ccccc2)N1Cc1cccc(/C=N/O)c1 | RF | - | - | - | <0.005 µM
CCCCC#CCSc1ccccc1OC(C)=O | 4602 ritonavir RES | - | - | - | 5 µM
Cc1ccc(S(=O)(=O)N(CC(C)C)C[C@@H](O)[C@H](Cc2ccccc2)NC(=O)O[C@H]2CO[C@H]3OCC[C@H]32)cc1 | IIIB | LPV-P31 lopinavir-resistant mutant | ATP | - | 0.0028 µM
O=C(Nc1cnccn1)c1cccc(CN2C(=O)N(Cc3cccc(C(=O)Nc4cnccn4)c3)[C@H](Cc3ccccc3)[C@H](O)[C@@H](O)[C@H]2Cc2ccccc2)c1 | RF | - | - | - | <0.0035 µM
Cc1ccnc2c1NC(=O)c1cccnc1N2C1CC1 | TIBO-RS | - | cytopathic effect | - | 4.2 ± 2.2 µM
CC(=O)c1cccc(COC(=O)CCCC[C@@H]2SC[C@H]3[C@@H]2N(Cc2cccc(C(C)=O)c2)C(=O)N3Cc2cccc(C(C)=O)c2)c1 | RF | - | - | - | <12.5 µM
Cc1ncn(-c2ncc(F)c3c(C(=O)C(=O)N4CCC(C(O)(c5ccccc5)c5nccn5C)CC4)c[nH]c23)n1 | LAI | - | luciferase / reporter gene / single cycle | - | <0.5 µM
C[C@H](Cn1cnc2c(N)ncnc21)OCP(=O)(O)O | IIIB | - | - | - | 11 µM
CCCCCC[C@@H]1[C@H](O)[C@@H](O)[C@@H](CCCCCC)N(Cc2cccc(C(=O)Nc3nc4ccccc4[nH]3)c2)C(=O)N1Cc1cccc(C(=O)Nc2nc3ccccc3[nH]2)c1 | RF | - | - | 3 d | <0.086 µM
Nc1ncnc2c1ncn2[C@@H]1O[C@H](CO)C[C@@H]1F | RT A62V/V75I/F77L/F116Y/Q151M | RT-A62V V75I F77L F116Y Q151M | p24 | - | 14 µM
O=C1N(Cc2cccc(CO)c2)[C@H](Cc2ccccc2)[C@H](O)[C@@H](O)[C@@H](Cc2ccccc2)N1Cc1cccc(-c2ccn[nH]2)c1 | RF | - | - | - | <0.234 µM
Cc1nc(C)c([C@H](OC(C)(C)C)C(=O)O)c(N2CC[C@H]3CCCC[C@@H]3C2)c1-c1ccc(OCCc2ccc(F)cc2)cc1 | NL4-3 | - | luciferase | - | <0.1 µM
CCN(c1nc(F)ccc1NC(C)(C)C)C1CCN(C(=O)c2cc3cc(NC(=O)N4CCN(C)CC4)ccc3[nH]2)CC1 | IIIB | K112M K113E V128I M200I H219P I401T R409K D437N L441P R41K | p24 / ELISA | - | 0.0261 µM
CCc1c(Sc2ccccc2)n(COCc2ccccc2)c(=O)[nH]c1=O | Nevirapine-resistant | - | cytopathic effect | - | 0.14 ± 0.04 µM
COc1cc(CN2C(=O)N(Cc3cccc(C(=O)Nc4ccc(C)cn4)c3)[C@H](Cc3ccccc3)[C@H](O)[C@@H](O)[C@H]2Cc2ccccc2)cc(OC)c1 | RF | - | - | - | <0.2817 µM
CC(C)(C)C(=O)OCOP(=O)(COCCn1cnc2c(N)ncnc21)OCOC(=O)C(C)(C)C | IIIB | - | - | - | 0.5 µM
CCc1c([Se]c2ccccn2)n(COCc2ccccc2)c(=O)[nH]c1=O | IIIB | - | cytopathic effect | - | 0.04 ± 0.02 µM
CC(C)(C)NC(=O)c1cccc(CN2C(=O)N(Cc3cccc(N)c3)[C@H](Cc3ccccc3)[C@H](O)[C@@H](O)[C@H]2Cc2ccccc2)c1 | RF | - | - | - | <0.1144 µM
C/C(=N/O)c1cccc(CN2C(=O)N(Cc3cccc(/C(C)=N\O)c3)[C@H]3CS[C@@H](CCCCC(=O)OCc4cccc(/C(C)=N/O)c4)[C@H]32)c1 | RF | - | - | - | <67 µM
COc1ccc(S(=O)(=O)N(CC(C)C)C[C@@H](O)[C@H](Cc2cc(F)cc(F)c2)NC(=O)O[C@H]2CO[C@H]3OCC[C@H]32)cc1 | LAI | - | MTT | - | 0.0002 µM
COc1cccc(CN2C(=O)N(Cc3cccc(C(=O)Nc4ccccn4)c3)[C@H](Cc3ccccc3)[C@H](O)[C@@H](O)[C@H]2Cc2ccccc2)c1 | RF | - | - | - | <0.03 µM

The last 4 rows once more:

CC(C)(C)NC(=O)c1cccc(CN2C(=O)N(Cc3cccc(N)c3)[C@H](Cc3ccccc3)[C@H](O)[C@@H](O)[C@H]2Cc2ccccc2)c1 ; strain or isolate: RF ; result: <0.1144 µM
C/C(=N/O)c1cccc(CN2C(=O)N(Cc3cccc(/C(C)=N\O)c3)[C@H]3CS[C@@H](CCCCC(=O)OCc4cccc(/C(C)=N/O)c4)[C@H]32)c1 ; strain or isolate: RF ; result: <67 µM
COc1ccc(S(=O)(=O)N(CC(C)C)C[C@@H](O)[C@H](Cc2cc(F)cc(F)c2)NC(=O)O[C@H]2CO[C@H]3OCC[C@H]32)cc1 ; strain or isolate: LAI ; method: MTT ; result: 0.0002 µM
COc1cccc(CN2C(=O)N(Cc3cccc(C(=O)Nc4ccccn4)c3)[C@H](Cc3ccccc3)[C@H](O)[C@@H](O)[C@H]2Cc2ccccc2)c1 ; strain or isolate: RF ; result: <0.03 µM